According to article PMC3542137, “Mycobacterium tuberculosis RecG binds and unwinds model DNA substrates with a preference for Holliday junctions”:

Tested on: Nc1ncnc2c1ncn2[C@@H]1O[C@H](COP(=O)(O)OP(=O)(O)OP(=O)(O)O)[C@@H](O)[C@H]1O
Assay: purified protein
Conditions: pH 7.5; 37.0 °C

RecGMtb (Mycobacterium tuberculosis H37Rv)
Km: 202 (±35) µM
